Data as given in PubChem BioAssay AID1259414 (Drosophila RNAi Screening Center, 2018)

Assay: 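Fly genes that alter Wolbachia amount inside host cells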 (primary screen)
Cells: Drosophila JW18 cells infected with Wolbachia
Knock-down reagent: long dsRNA against Drosophila genes, 0.25 µg dsRNA per well of a 384-well plate
Timing: 5 days
Treatment: cells persistently infected with Wolbachia before knock-down; no added drug
Read-out: 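Automated imaging of bacterial rRNA staining divided by host cell count, reported as plate-normalised robust z-score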
Scale: Wolbachia per cell robust z: higher = more Wolbachia per host cell than the plate typical
Rule for the call: 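Hit when robust z is 1.5 or more, or -1.5 or less, in at least two of three replicates; excludes dsRNAs with several or no targets, genes not expressed in JW18 and well A1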
In all, the deposit lists about 24,000 reagents; this is a random part of those that have a named target and a result. Of all reagents, about 1,210 (5%) got an active call. 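Inactive calls also include excluded dsRNAs with several or no targets, genes unexpressed in JW18, and well A1, regardless of score.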 A number with no mark means an inactive call. The numbers tell different reagents against one gene apart.

Knock-down of Usp12-46 (Ubiquitin-specific protease 12/46) came out at: Wolbachia per cell robust z, rep 1 = 0.481; Wolbachia per cell robust z, rep 2 = 1.06; Wolbachia per cell robust z, rep 3 = -1.19.
CstF64 (Cleavage stimulation factor 64 kD subunit) #1 gave Wolbachia per cell robust z, rep 1 = -6.48; Wolbachia per cell robust z, rep 2 = -0.768; Wolbachia per cell robust z, rep 3 = -0.355.
With knock-down of CstF64 (Cleavage stimulation factor 64 kD subunit) #2, the record shows Wolbachia per cell robust z, rep 1 = 0.513; Wolbachia per cell robust z, rep 2 = 0.792; Wolbachia per cell robust z, rep 3 = 1.22.
For CG30484 the deposit lists Wolbachia per cell robust z, rep 1 = -0.342; Wolbachia per cell robust z, rep 2 = 1.28; Wolbachia per cell robust z, rep 3 = 0.866.
After knock-down of PlexB (Plexin B), the screen gave Wolbachia per cell robust z, rep 1 = 0.542; Wolbachia per cell robust z, rep 2 = -0.335; Wolbachia per cell robust z, rep 3 = -0.277.
Against fan (farinelli) the deposit lists Wolbachia per cell robust z, rep 1 = 0.282; Wolbachia per cell robust z, rep 2 = -0.26; Wolbachia per cell robust z, rep 3 = 0.0624.
With knock-down of Acbp5 (Acyl-CoA binding protein 5), the screen gave Wolbachia per cell robust z, rep 1 = -3.94; Wolbachia per cell robust z, rep 2 = -1.08; Wolbachia per cell robust z, rep 3 = 0.35.
CG2127 scored Wolbachia per cell robust z, rep 1 = -4.93; Wolbachia per cell robust z, rep 2 = -1.07; Wolbachia per cell robust z, rep 3 = -0.0739.
fws (four way stop) #1 showed Wolbachia per cell robust z, rep 1 = 0.331; Wolbachia per cell robust z, rep 2 = -6.2; Wolbachia per cell robust z, rep 3 = 0.54.
Against fws (four way stop) #2, the entry reads Wolbachia per cell robust z, rep 1 = -0.0287; Wolbachia per cell robust z, rep 2 = 0.348; Wolbachia per cell robust z, rep 3 = 0.324.
Against Cul6 (Cullin 6), the values are Wolbachia per cell robust z, rep 1 = -0.907; Wolbachia per cell robust z, rep 2 = 0.187; Wolbachia per cell robust z, rep 3 = -4.72.
Silencing of CG3611 came out at: Wolbachia per cell robust z, rep 1 = 0.76; Wolbachia per cell robust z, rep 2 = -1.49; Wolbachia per cell robust z, rep 3 = 0.59.

In a second layout: 2 of the entries above
Gene | reagent | Wolbachia per cell robust z, rep 1 | Wolbachia per cell robust z, rep 2 | Wolbachia per cell robust z, rep 3
PlexB (Plexin B) | 1 | 0.542 | -0.335 | -0.277
fan (farinelli) | 1 | 0.282 | -0.26 | 0.0624
